Article PMC12654924 (PLOS Pathogens, 2025)

Experiments:
[1] = target: tHA (Asiatic toad influenza-like virus HA) (Wuhan asiatic toad influenza virus, UniProt A0A2P1GNQ1); settings: read-out: affinity; biotinylated glycan immobilised; PBST pH 7.4, 25 °C; kinetic 1:1 Langmuir fit; labelled compound
[2] = target: InH5 HA (A/Indonesia/5/2005) (Influenza A virus (A/Indonesia/5/2005(H5N1)), UniProt C5MRF2); settings: read-out: affinity; biotinylated glycan immobilised; PBST pH 7.4, 25 °C; steady state affinity model; labelled compound

“NeuAcα2–3Galβ1–4GlcNAcβ1–3Galβ1–4GlcNAcβ1-SpNH-LC-LC-Biotin [α2–3 glycans (3′SLNLN, biotinylated)]” gave a Kd [1] of 0.0353 µM and a Kd [2] of 68.3 µM.
